Experimental data from US20220401514A1, “ANTIMICROBIAL, BACTERIOPHAGE-DERIVED POLYPEPTIDES AND THEIR USE AGAINST GRAM-NEGATIVE AND ACID-FAST BACTERIA” (CONTRAFECT CORPORATION, priority 2019, published 2022).

Tested on: P. aeruginosa strain CFS 1292
Assay type: cell-based, Pseudomonas aeruginosa
Settings: 21-day study, duplicates (1),(2)

NC[C@H]1O[C@H](O[C@H]2[C@H](O)[C@@H](O[C@H]3O[C@H](CO)[C@@H](O)[C@H](N)[C@H]3O)[C@H](N)C[C@@H]2N)[C@H](N)C[C@@H]1O [Tobra] was tested, and the “Serial Passage MIC Day 0” value was 0.125 µg/mL.
